Test results from paper PMC7032734, “Predicting nitroimidazole antibiotic resistance mutations in Mycobacterium tuberculosis with protein engineering” (2020).

Chains of the proteins cited; added tags and fusions are not shown. Lines headed by an entry give the natural chain unless they say otherwise; changes in a name come on top.
UniProt P9WP15: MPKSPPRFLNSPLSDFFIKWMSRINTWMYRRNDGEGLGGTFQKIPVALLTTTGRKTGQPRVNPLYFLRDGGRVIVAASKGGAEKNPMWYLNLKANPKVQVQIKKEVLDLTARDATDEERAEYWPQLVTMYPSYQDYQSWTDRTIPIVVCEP

Target: Ddn (Mycobacterium tuberculosis, UniProt P9WP15)
Assay: F420H2 oxidation, absorbance at […] nm
Settings: F420H2 25 μM, 200 mM Tris-HCl pH 7.5, 0.1% Triton X-100, room temperature

`CC(C)=CCC1=C(C)C(=O)c2ccccc2C1=O` showed a Km of 22.4 µM.
